# Vif 1203: effect of single changes on growth against APOBEC3G

Protein: Vif of HIV-1 1203 (a subtype B primary isolate). Residues 12-115 were scanned and are shown below; the first letter is residue 12.
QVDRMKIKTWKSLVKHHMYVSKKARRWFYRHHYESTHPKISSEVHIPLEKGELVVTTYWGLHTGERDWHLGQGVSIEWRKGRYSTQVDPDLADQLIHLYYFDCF

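Pooled viruses with one designed change each in Vif went through two 72 h rounds in SupT1 cells expressing APOBEC3G. Frequencies after the second round, in three biological replicates, were compared with the merged pool after the first round. Changes do not touch integrase, since the pol overlap was removed.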

The score is log2 enrichment against the wild-type codon: higher is better tolerated, lower is depleted. Substitutions are written as wild-type residue, site number, new residue. The median of three replicates is given. Input reads are the counts in the merged round-one pool, before selection. The authors note that some positive scores may be noise, and some enriched variants failed when tested singly. Not every substitution is listed. The scan is noisy: the rank correlation of replicates is about 0.4 to 0.65, and variants with under about 50 input reads tend to read too high.

change,input reads,median score
S46N,29,-0.96
S52N,567,-1.67
S46G,1188,-1.83
A103E,168,-3.03
V55H,396,-1.38
K26P,1124,-1.52
S95D,75,3.23
I87P,127,-2.77
I18V,138,-2.03
R15N,21,3.44
Y44I,178,-2.50
E88Q,47,-2.58
W38N,245,-0.21
W70Y,389,-2.39
R15A,642,-1.83
T20F,37,0.08
V25D,46,-1.64
S86H,332,-2.33
G75H,422,-1.99
D104R,114,-1.69
E63S,523,0.51
L72S,60,-4.35
F115W,448,-2.02
I87R,497,-0.23
E76D,166,-2.80
E54N,356,-1.07
E76A,20,0.22
T74R,38,2.12
L59T,210,-1.76
L102F,190,-1.21
H108C,108,-3.76
Q83S,204,-2.27
H48D,317,-2.47
Q83R,869,-1.84
D113C,2240,-2.65
P49H,348,-1.68
V66R,176,-1.81
T67N,36,2.61
Y40A,220,-2.77
I18T,276,-1.60
G62Q,147,-3.67
I51Q,272,-2.25
K17F,69,-2.98
R90A,342,-2.74
F112Q,291,-2.69
P58C,212,-1.87
H73G,154,-2.98
F112M,16,-2.05
E88H,1803,-2.05
I57L,152,-1.82
I107W,184,-2.26
F115P,66,0.93
V85E,270,-1.77
K61E,19,-1.12
S86N,572,-3.00
L64H,171,-2.10
R36V,59,0.44
F112C,28,0.81
T68K,19,1.61
E63A,55,3.86
V85P,294,-2.24
L109K,30,-3.34
P49V,821,-1.74
K91Q,101,-3.13
G82I,368,1.04
S46T,77,1.12
W38D,247,-2.14
H73R,38,-3.30
K19A,158,0.13
G92E,543,-1.69
M16A,33,-0.24
F112G,738,-2.61
Y69N,320,-2.52
V65F,243,-1.65
K33Y,227,-1.84
E60P,41,-0.59
S86F,22,1.72
V85H,264,-2.55
H73K,70,-2.59
Y111F,29,-0.49
H28C,315,1.31
K19R,1153,-0.73
K22C,27,1.26
W79V,301,-2.18
G82Q,313,-1.46
L109F,205,1.33
H42N,442,1.41
D101T,274,-2.01
S95N,349,-1.92
I57T,201,-2.87
V31I,28,-3.26
Y40I,332,-1.90
F112H,104,-2.49
K17T,102,-1.95
V66E,77,-2.55
L109Y,313,-2.97
Y44R,240,-2.53
Y111D,317,-2.38
S23F,277,-1.90
K50D,375,-2.39
H42I,273,-1.85
E63C,144,-1.70
K17S,38,-0.50
R15Q,368,-0.99
H73D,649,-2.73
H43G,230,-2.03
K34E,728,-1.36
L106G,57,-1.96
H43P,590,-2.68
H43E,410,-0.22
V66N,248,-1.47
Y40P,348,-2.00
C114A,368,0.01
E76Q,49,-2.41
R77W,234,-1.37
H56N,22,1.32
L109V,141,-1.46
K19D,723,-2.05
H27I,716,0.80
G84Y,509,-1.91
I87T,218,0.12
Y30C,169,1.55
Y110A,142,-1.49
K19I,19,1.00
H108Q,29,3.96
V31P,178,-2.74
G75V,29,0.27
D78I,269,-2.16
M16S,533,-0.89

The first 7 entries again:

change,input reads,median score
S46N,29,-0.96
S52N,567,-1.67
S46G,1188,-1.83
A103E,168,-3.03
V55H,396,-1.38
K26P,1124,-1.52
S95D,75,3.23

From the data files of Langley et al. 2025, preprint, doi:10.1101/2025.10.20.683452.